What all share (assay): pseudovirus neutralization IC50; higher = weaker neutralization
Assay [1] deals with SARS-CoV-2 Omicron BA.1 spike pseudovirus. The procedure:
(§1)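 Single-round VSV luciferase pseudovirus mixed with antibody dilutions for 1 h and put on Huh-7 cells for about a day; IC50 from the dose curve.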

Assay [2] has as its target SARS-CoV-2 Omicron BA.2 spike pseudovirus. The procedure: as §1
Assay [3] has as its target SARS-CoV-2 Omicron BA.2.75 spike pseudovirus. The method, then:
as §1

In assay [4] the target is SARS-CoV-2 Omicron BA.5 spike pseudovirus. The procedure:
as §1

Assay [5] deals with SARS-CoV-2 Omicron BQ.1.1 spike pseudovirus. The method, then: as §1
The target in assay [6] is SARS-CoV-2 Omicron XBB spike pseudovirus. The procedure:
as §1

Assay [7] addresses SARS-CoV-2 early D614G spike pseudovirus. The method, then: as §1

Human monoclonal antibodies against the spike receptor-binding domain (heavy:light variable regions). IC50 against pseudoviruses bearing the spike of naturally observed variants; lower = stronger; >10 µg/ml means not reached at the top dose. No active / inactive call. The stated detection limit is 0.0005 µg/ml; values near or below 0.001 µg/ml lie at the floor of the assay.

B1: BD55-6527 (protein)
chain 1: EVQLVESGGGLIQPGGSLTLSCAASGFTVSRNLMGWVRQAPGKGLEWLSVIYSGGTTYFADSVTGRFTISRDNSRNTLSLQMNSLRAEDTAVYYCVGEQGSGRWRGTLFDSWGQGTLVTVSP
chain 2: QSVLTQPPSVSGAPGQRVTISCTGSSSNIGAGYDVHWYQQVPGTAPKLLMYGNSNRPSGVPDRFSGSKSGTSASLTITGLQAEDEADYYCQSYDSSLSVLYVFGSGTRVTVL
With B1, the “pseudovirus neutralization IC50” value is 0.45 µg/mL in assay [1]; > 10 µg/mL in assay [2]; > 10 µg/mL in assay [3]; > 10 µg/mL in assay [4]; > 10 µg/mL in assay [5]; > 10 µg/mL in assay [6]. The “pseudovirus neutralization IC50” value in assay [7] turned out to be 1.74 µg/mL.

B2: BD55-6538 (protein)
chain 1: QVQLVQSGAEVKKPGASVKVSCQASGNTFTSYDINWVRQATGQGPEWMGWVNSNSGNTDYAHKFRGRVTMTRDTSIKTVFLELSSLKSEDTAVYYCATARAGYNYGDFENWGQGTLVTVSS
chain 2: DIQMTQSPSSLSASVGDRVTFTCRAGQSITWHLNWYQQKPGKAPKLLIYAASSLQSGVPSRFSGSGSGTDFTLTISNLQPEDFATYYCQQSYSTGYTFGQGTKLEIK
On to B2, for which the “pseudovirus neutralization IC50” value in assay [1], in assay [2], in assay [3], in assay [4], in assay [5] and in assay [6] was > 10 µg/mL in each case. Besides, the “pseudovirus neutralization IC50” value in assay [7] is > 10 µg/mL.

B3: BD55-6504 (protein)
chain 1: EVQLVQSGAEVKKPGESLKISCKGSGDSFTNHWIAWVRQTPGKGLEWMGLIYPGDSDTRYSPSFQGQVTFSADKSISTAYLQWSRLKASDTAIYYCARHGGALREIDWQNNGMDIWGQGTTVTVSS
chain 2: DIQMTQSPSSLSASVGDRVTITCRASQRISNYLHWYQQKPGQAPKLLIYAASSLQSGVPSRFIGSGSGTDFTLTISNLQPEDFATYYCQQSYTIPTWTFGQGTRVEIK
Take B3: the “pseudovirus neutralization IC50” value in assay [1], in assay [2], in assay [3], in assay [4], in assay [5] and in assay [6] was > 10 µg/mL each time. For the same molecule, in assay [7], the “pseudovirus neutralization IC50” value was > 10 µg/mL.

B4: BD55-6559 (protein)
chain 1: QLQLQESGPGLLKPSETLSLTCSVSGGSVSSGLYYWGWLRQPPGKGLDWIGTLDYTGATYYNPSLKSRLTISVDASNNQFSLRLMSVTATDTAVYYCARPRLISGYSGDWQGPTYHFDSWGQGTLVTV
chain 2: SDVLTQPPSVSVAPGETAWMTCGGNNVGGKSIHWYQQRPGQAPVLVVFDDSGRPSGIPERFSGSHSGNTATLTVSRVEAGDEADYYCQMWDSGTDLAVFGGGTKLTVL
On to B4, for which the “pseudovirus neutralization IC50” value in assay [1], in assay [2], in assay [3], in assay [4], in assay [5] and in assay [6] was > 10 µg/mL in each case. In assay [7], the “pseudovirus neutralization IC50” value was 8.74 µg/mL.

B5: BD55-6546 (protein)
chain 1: VQLYESGPGLVKPSETLSLTCIVSGGYISSYYWTWIRQPPGKGLEWIGYIEYSGSTIYTPSLKSRVTISVDTSNNQFSLKMTSVTAADTAVYYCARGGGRYLDDPYYYGMDVWGQGTTVTVSS
chain 2: QSVLTQPPSVSGTPGQRVTISCSGSTSNIGSNAVNWYQQLPGTAPKLLIHSNNERPSGVTDRFSGSKSGTSASLAISGLQSGDEADYYCAAWDDDLNGREVFGGGTKLTVL
Consider B5, for which the “pseudovirus neutralization IC50” value in assay [1], in assay [2], in assay [3], in assay [4], in assay [5] and in assay [6] was > 10 µg/mL in each case. In assay [7], the “pseudovirus neutralization IC50” value is > 10 µg/mL.

B6: BD-536 (protein)
chain 1: QLVESGGGLVKPGGSLRLSCAVSGFTLSGYSINWVRQAPGKGLEWVSFVSGSGSQKFYGDSVKGRFTVSRDNAKSSVYLQMNSLRVEDTAIYYCARDAGKSPLSYWYFDLWGRGTLVTVSS
chain 2: QIVLTQSPATLSLSPGERATLSCRASQTIGISLAWYQQKAGQPPRLLIYDAANRATGVPARFSGSGSGTDFTLTISSLQSEDFAVYYCQQRNNWPPKVTFGGGTKVEIK
Consider B6, for which the “pseudovirus neutralization IC50” value in assay [1], in assay [2], in assay [3], in assay [4], in assay [5] and in assay [6] was > 10 µg/mL in each case. Moreover, in assay [7], the “pseudovirus neutralization IC50” value was determined as 2.6 µg/mL.

B7: BD55-6517 (protein)
chain 1: EVQLVESGGGLVQPGGSLRLSCAASGFTFSSSWMNWVRQAPGKGLEWVANINQDGSERNYVASVRGRFNIYSDHAKNSLFLQMDSLRADDTAVYYCARGDTNKWYTEYFRHWGQGTLVTVSS
chain 2: SDELTQPSSVSVSPGQTARITCSGNALSRQHGYWYQHKPGQAPVLVIYKDTERPSGIPERFSGSTSGTTATLIITGVQAEDEADYYCQSADSSSTNYVFGTGTKVTVL
B7: the “pseudovirus neutralization IC50” value in assay [1], in assay [2], in assay [3], in assay [4], in assay [5] and in assay [6] was > 10 µg/mL throughout. Also, in assay [7], the “pseudovirus neutralization IC50” value was > 10 µg/mL.

B8: BD55-6554 (protein)
chain 1: QVQLVQSGAEVKRPGASLTVSCKASGYSFANYGVNWVRQVPGQGLEWVGWISGYNGNTVYAQRLQDRVSMTTDTSTSTVYMKLKSLTSDDTAVYFCARDANYDSNGHFFRGGPFNWLDPWGQGTLVTVSS
chain 2: QSVLTQPPSASGTPGQRVTISCSGGHSNIGSNYVYWYQQFPGTAPKLLIYKNSQRPSGVPDRFSGSKSGTSASLAISGLRSEDEAEYYCAAWDDSPSGPWVFGGGTKLTVL
Consider B8, for which the “pseudovirus neutralization IC50” value in assay [1], in assay [2], in assay [3], in assay [4], in assay [5] and in assay [6] was > 10 µg/mL throughout. Further, in assay [7], the “pseudovirus neutralization IC50” value was > 10 µg/mL.

B9: BD55-6509 (protein)
chain 1: EVQLVQSGAEVKKPGESLKISCKASGYIFSTDWIGWVRQMPGKGLEWMGIIWPDDSDTIYSPSFQGQVTFSADKSISTAYLQLNSLKASDSALYYCARRIGATYYFDYWGQGTRVTVSS
chain 2: QSALTQPASVSGSPGQSITISCTGTSSDVGGYNYVSWYQQHPGRAPKLVIYDVSNRPSGVSPRFSASKSGNTASLTISGLQADDEADYFCTSYTSSTTLWVFGGGTKLTVL
Consider B9, for which the “pseudovirus neutralization IC50” value in assay [1], in assay [2], in assay [3], in assay [4], in assay [5] and in assay [6] was > 10 µg/mL in each case. Also, the “pseudovirus neutralization IC50” value in assay [7] was > 10 µg/mL.

B10: BD55-6505 (protein)
chain 1: DVQLVQSGAEVKKPGESLKISCKGSENNFVNHWIGWARQMPGKGLEWMGVIYPGDSETKYSPSFKGQVTFSVDTSISTAYLQWSSLKASDTAMYYCASRNWGYYSYGMDVWGQGTTVTVSS
chain 2: IQMTQSPSSLSASVGDRVTITCRASQGINNWLAWYQQKPGKAPELLIYAASTLQSGVPSRFSGSGSGTDFTLTIGSLQPEDFATYYCQQANTFPPTFGQGTRLEIK
Consider B10, for which the “pseudovirus neutralization IC50” value in assay [1], in assay [2], in assay [3], in assay [4], in assay [5] and in assay [6] was > 10 µg/mL each time. Moreover, in assay [7], the “pseudovirus neutralization IC50” value is > 10 µg/mL.

B11: BD55-6529 (protein)
chain 1: VQLVQSGAEVKKPGASVKVSCRASGYTFDTFDINWVRQATGQGPEWMGWMNPKSGDTGFAPNFQGRVTMTRDSSINTAYMELSSLRSGDTAVYYCAIGLFYDGGGFNRYHYYTMDVWGQGTTVTVSS
chain 2: IHMTQSPSSLSASVGGRITITCRASQSISTSLNWYQQQPGKPPKLLIFGSSTLATGVPPRFSGSGSGTDFTLTIISLQPEDFATYYCQQSYSFPGTFGPGTKVDI
For B11, the “pseudovirus neutralization IC50” value in assay [1], in assay [2], in assay [3], in assay [4], in assay [5] and in assay [6] was > 10 µg/mL throughout. In addition, in assay [7], the “pseudovirus neutralization IC50” value is 8.87 µg/mL.

B12: BD55-6512 (protein)
chain 1: EVQLVESGGGLVQPGRSLRLSCTASGFTFGDYTLSWFRQAPGKGLEWVGFIRSKTHGGTTEYAASMMGRFTISRDDSKSIAYLEMNSLKTEDTAIYYCTREGILNYYYYYAMDVWGQGTTVTVSS
chain 2: DIQMTQSPSSLSASVADRVTITCRASQSISYYLNWYQQKPGKAPKLLIYAASSLQSGVPSRFSGSGSGTDFTLTISNLQPADFATYFCQQSYSIPLTFGGGTKVEIK
With B12, the “pseudovirus neutralization IC50” value in assay [1], in assay [2], in assay [3], in assay [4], in assay [5] and in assay [6] was > 10 µg/mL throughout. Further, the “pseudovirus neutralization IC50” value in assay [7] is > 10 µg/mL.

The values above are taken from the supplement of paper PMC9931576.
